Molecular target: Sigma non-opioid intracellular receptor 1 (Cavia porcellus, UniProt Q60492)
Assay: Displacement of [3H]-(+)-pnetazocin from sigma1 receptor in guinea pig brain membrane incubated for 150 mins by liquid scintillation counting method
Format: cell membranes

Chains of the proteins cited; added tags and fusions are not shown.
UniProt Q60492, whole entry: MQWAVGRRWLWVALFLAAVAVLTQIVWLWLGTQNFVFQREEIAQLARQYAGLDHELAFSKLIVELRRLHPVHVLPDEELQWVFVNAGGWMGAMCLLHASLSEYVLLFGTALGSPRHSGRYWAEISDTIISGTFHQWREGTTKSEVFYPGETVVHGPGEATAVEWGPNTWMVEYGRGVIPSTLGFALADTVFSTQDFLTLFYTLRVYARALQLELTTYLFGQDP

## CCC(=O)N(CCN1CCC(Cc2ccccc2)CC1)c1ccc(F)cc1
  Ki: 4.1 nM

— ChEMBL document CHEMBL4765270, “Piperidine propionamide as a scaffold for potent sigma-1 receptor antagonists and mu opioid receptor agonists for treating neuropathic pain” (Eur J Med Chem, 2020)
